{"source": "PubChem BioAssay AID624099 (ICCB-Longwood, 2012)", "aim": "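Host factors E2 relies on to silence an HPV18 LCR reporter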 (primary screen)", "system": "human C33A cervical carcinoma cells (HPV-negative) stably expressing BPV1 E2 and an HPV18 LCR luciferase reporter", "reagents": "siRNA pool against human genes, 40 nM", "timing": "72 h", "detection": "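Per-well luciferase luminescence, z-scored on each plate against the plate mean and SD with control wells left out, then averaged across three replicate plates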", "direction": "mean z-score and z-score: higher = stronger reporter signal, weaker E2 silencing", "hit rule": "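Hit if mean z-score reaches 2 and two or more of three replicate z-scores also reach 2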", "note": "In all, the deposit lists about 21,000 reagents; this is a random part of them. Of all reagents, 497 (2.4%) got an active call. 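Higher z means weaker E2 silencing; only reporter increases were scored, and knock-downs that hurt cell survival may mask genuine repressor factors.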"}
{"Gene":"CTBS (chitobiase)","mean z-score":2,"z-score, replicate A":1.61,"z-score, replicate B":2.17,"z-score, replicate C":2.21,"Outcome":"inactive"}
{"Gene":"CNTLN (centlein)","mean z-score":2.95,"z-score, replicate A":2.31,"z-score, replicate B":3.36,"z-score, replicate C":3.18,"Outcome":"active"}
{"Gene":"PRDM7 (PR/SET domain 7)","mean z-score":0.61,"z-score, replicate A":0.15,"z-score, replicate B":0.31,"z-score, replicate C":1.38,"Outcome":"inactive"}
{"Gene":"CDC14B (cell division cycle 14B)","mean z-score":-0.04,"z-score, replicate A":-0.17,"z-score, replicate B":0.06,"z-score, replicate C":0,"Outcome":"inactive"}
{"Gene":"MRPL36 (mitochondrial ribosomal protein L36)","mean z-score":0.32,"z-score, replicate A":0.01,"z-score, replicate B":0.47,"z-score, replicate C":0.46,"Outcome":"inactive"}
{"Gene":"ZNF235 (zinc finger protein 235)","mean z-score":-0.29,"z-score, replicate A":-0.33,"z-score, replicate B":-0.34,"z-score, replicate C":-0.2,"Outcome":"inactive"}
{"Gene":"IL15RA (interleukin 15 receptor subunit alpha)","mean z-score":0.33,"z-score, replicate A":0.47,"z-score, replicate B":0.23,"z-score, replicate C":0.29,"Outcome":"inactive"}
{"Gene":"PAXX (PAXX non-homologous end joining factor)","mean z-score":0.2,"z-score, replicate A":-0.13,"z-score, replicate B":0.07,"z-score, replicate C":0.65,"Outcome":"inactive"}
{"Gene":"BEX3 (brain expressed X-linked 3)","mean z-score":0.47,"z-score, replicate A":0.49,"z-score, replicate B":0.76,"z-score, replicate C":0.16,"Outcome":"inactive"}
{"Gene":"ZNF207 (zinc finger protein 207)","mean z-score":0.54,"z-score, replicate A":0.42,"z-score, replicate B":0.56,"z-score, replicate C":0.65,"Outcome":"inactive"}

A few values from the list:
For “Outcome”, CTBS (chitobiase) has inactive
CNTLN (centlein), Outcome: active

Additional entries:
{"Gene":"CARD11 (caspase recruitment domain family member 11)","mean z-score":-1.45,"z-score, replicate A":-1.49,"z-score, replicate B":-1.74,"z-score, replicate C":-1.11,"Outcome":"inactive"}
{"Gene":"RPP40 (ribonuclease P/MRP subunit p40)","mean z-score":-0.58,"z-score, replicate A":-0.7,"z-score, replicate B":-0.62,"z-score, replicate C":-0.43,"Outcome":"inactive"}
{"Gene":"CALCB (calcitonin related polypeptide beta)","mean z-score":1.65,"z-score, replicate A":1.57,"z-score, replicate B":1.91,"z-score, replicate C":1.46,"Outcome":"inactive"}
{"Gene":"ZNF566 (zinc finger protein 566)","mean z-score":0.16,"z-score, replicate A":0.03,"z-score, replicate B":0.05,"z-score, replicate C":0.41,"Outcome":"inactive"}
{"Gene":"DSPP (dentin sialophosphoprotein)","mean z-score":-0.51,"z-score, replicate A":-0.51,"z-score, replicate B":-0.65,"z-score, replicate C":-0.38,"Outcome":"inactive"}
{"Gene":"VPS35 (VPS35 retromer complex component)","mean z-score":1.18,"z-score, replicate A":1.12,"z-score, replicate B":1.04,"z-score, replicate C":1.39,"Outcome":"inactive"}
{"Gene":"PSMB4 (proteasome 20S subunit beta 4)","mean z-score":-0.22,"z-score, replicate A":0.38,"z-score, replicate B":-0.41,"z-score, replicate C":-0.62,"Outcome":"inactive"}
{"Gene":"FAHD1 (FAH domain containing oxaloacetate decarboxylase 1)","mean z-score":-0.71,"z-score, replicate A":-0.38,"z-score, replicate B":-0.92,"z-score, replicate C":-0.84,"Outcome":"inactive"}
{"Gene":"OR2K2 (olfactory receptor family 2 subfamily K member 2)","mean z-score":-1.17,"z-score, replicate A":-1.16,"z-score, replicate B":-1.27,"z-score, replicate C":-1.08,"Outcome":"inactive"}
{"Gene":"SAPCD2 (suppressor APC domain containing 2)","mean z-score":-1.09,"z-score, replicate A":-1.3,"z-score, replicate B":-1.1,"z-score, replicate C":-0.87,"Outcome":"inactive"}
{"Gene":"GJA1 (gap junction protein alpha 1)","mean z-score":1.51,"z-score, replicate A":1.43,"z-score, replicate B":1.22,"z-score, replicate C":1.88,"Outcome":"inactive"}
